{"source": "patent US6548552B1", "about": "(priority 1997, dated 2003)", "test_system": "TSST-1 production by S. aureus", "details": "each agent at the concentration of b78: ascorbic acid 0.06%, propyl gallate 0.1%, delta-tocopherol 2.0%, cysteine 0.1%, N-acetyl-cysteine 0.2%, thiodipropionic acid 0.02%, bisulfites 0.05%, caffeine 0.025%, glutathione 0.2%", "data": [{"smiles": "N[C@@H](CCC(=O)N[C@@H](CS)C(=O)NCC(=O)O)C(=O)O", "values": [{"measurement": "effect on bacterial toxin production (in words)", "result": "reduced toxin production"}]}, {"smiles": "CCCOC(=O)c1cc(O)c(O)c(O)c1", "note": "[Propylgallate, propyl gallate]", "values": [{"measurement": "effect on bacterial toxin production (in words)", "result": "reduced toxin production"}]}]}
